The values below come from PubChem BioAssay AID1621 (Southern Research Specialized Biocontainment Screening …, 2009).

Structures are written as SMILES. Some of the results follow. Results with a measured potency or affinity are listed apart. Calls of active or inactive are those of the source. No rule for the calls is given here.

The nature of this assay: West Nile virus antiviral activity, cell-based, CPE readout (AID 1621). Particulars: West Nile virus-infected cells, at 10 µM, stronger effect = higher value.
As for `CN1CCC(Nc2cccc(F)c2)CC1`, the CPE inhibition is inactive: -0.09%. Under `CCCOc1ccc(C(=O)NCC2(N(C)C)CCCCC2)cc1OC` stands inactive: 0%; under `CN(C)c1cccc(C(=O)NCC2(N3CCCCC3)CCCCC2)c1`, inactive: -0.29%. Take `COc1ccc(CN(CCCl)CCCl)cc1Cl`: the CPE inhibition was inactive: -0.12%. As to `CC(C)c1ccc(NC2CCN(C(=O)OC(C)(C)C)CC2)cc1`, the CPE inhibition was inactive: -0.48%. Under `COc1cc(OC)c(C(=O)NCC2(N(C)C)CCCCC2)cc1OC` stands inactive: 0.14%. On to `O=C(NCC1(N2CCCCC2)CCCCC1)c1cccc(C(F)(F)F)c1`, for which the CPE inhibition is inactive: -0.35%.

With `COc1ccc(NC2CCN(C(=O)OC(C)(C)C)CC2)cc1`, the CPE inhibition is inactive: -0.25%. Consider `CN1CCN(CCOC(=O)C(O)(c2ccccc2)c2ccccc2)CC1`, for which the CPE inhibition was inactive: -0.17%. On to `O=C(NCC1(N2CCOCC2)CCCCC1)c1cc(=O)[nH]c2ccccc12`, for which the CPE inhibition was inactive: 0.27%.

Consider `COc1cc(C(=O)NCC2(N3CCCCC3)CCCCC2)ccc1OC(F)F`, for which the CPE inhibition is inactive: -0.79%. `O=C(NCC1(N2CCCCC2)CCCCC1)c1ccc(OC(F)F)cc1`: the CPE inhibition is inactive: -0.35%. Take `O=C(NCC1(N2CCCCC2)CCCCC1)c1cccc([N+](=O)[O-])c1`: the CPE inhibition is inactive: -0.78%. For the compound `N#CC1(Nc2ccccc2)CCN(CCc2ccccc2)CC1`, the CPE inhibition was inactive: 0.15%. Turning to `CCN1CCC(Nc2ccc(Cl)cc2)CC1`, the CPE inhibition was inactive: -0.22%. Regarding `Cc1ccc(OCC(C)C)c(CN(CCCl)CCCl)c1`, the CPE inhibition is inactive: 0.07%. In the case of `COc1cc(C(=O)NCC2(N(C)C)CCCCC2)ccc1OC(F)F`, the CPE inhibition is inactive: 0.66%. Turning to `CCOC(=O)N1CCC(Nc2cccc(C)c2)CC1`, the CPE inhibition is inactive: 0.65%. Then `CCOc1ccc(C)cc1CN(CCCl)CCCl`, with inactive: 0.13%; and `CCOC(=O)N1CCC(Nc2ccc(F)cc2)CC1`, with inactive: 0.91%; and `COc1ccc(NC2CCN(CCc3ccccc3)CC2)c(OC)c1`, with inactive: -0.54%. Then `O=C(NCC1(N2CCCCC2)CCCCC1)c1ccc(F)cc1`, with inactive: -0.88%; and `O=C(NCC1(N2CCOCC2)CCCCC1)c1cc2ccccc2o1`, with inactive: -0.25%. Then `Cc1cc(C)cc(N(C(=O)c2ccccc2)C2CCN(C(=O)OC(C)(C)C)CC2)c1`, with inactive: -1.73%; and `CCOC(=O)N1CCC(Nc2ccc(OC)cc2)CC1`, with inactive: -0.19%. Consider `O=C(OC1CN2CCC1CC2)C1c2ccccc2Oc2ccccc21` (centres undefined), for which the CPE inhibition was inactive: -0.39%.

On to `N#CC1(Nc2ccccc2)CCN(Cc2ccccc2)CC1`, for which the CPE inhibition was inactive: 1.33%. As to `O=C(NCC1(N2CCCCC2)CCCCC1)c1ccc(=O)[nH]c1`, the CPE inhibition is inactive: -0.21%. As to `CC(C)(C)OC(=O)N1CCC(N(C(=O)c2ccccc2)c2ccc(F)cc2)CC1`, the CPE inhibition is inactive: -1.34%.

As to `COc1ccc(C(=O)NCC2(N3CCCCC3)CCCCC2)c(OC)c1OC`, the CPE inhibition is inactive: -0.45%. Regarding `COc1ccc(C(=O)NCC2(N3CCCCC3)CCCCC2)cc1`, the CPE inhibition was inactive: -0.32%.

Take `CSc1ccccc1C(=O)NCC1(N2CCCCC2)CCCCC1`: the CPE inhibition is inactive: -0.33%.

Regarding `CCC(CO)(C(=O)OC1CN2CCC1CC2)c1ccccc1` (centres undefined), the CPE inhibition was inactive: 0.28%. With `COc1cccc(C(=O)N(c2cc(C)cc(C)c2)C2CCN(C(=O)OC(C)(C)C)CC2)c1`, the CPE inhibition was inactive: 0.24%.

Regarding `COc1cc(OC)cc(C(=O)NCC2(N3CCOCC3)CCCCC2)c1`, the CPE inhibition is inactive: -1.03%. As for `CCCOc1ccc(C)cc1CN(CCCl)CCCl`, the CPE inhibition was inactive: 0.13%. Take `CN1CCC(Nc2ccc(Cl)cc2)CC1`: the CPE inhibition is inactive: 0.58%. Take `CN1CCC(Nc2ccc(F)c(Cl)c2)CC1`: the CPE inhibition was inactive: -0.15%. As for `CCOc1ncccc1C(=O)NCC1(N2CCOCC2)CCCCC1`, the CPE inhibition is inactive: 0.24%.

Turning to `CCCOc1ccc(C(=O)NCC2(N(C)C)CCCCC2)cc1`, the CPE inhibition was inactive: -0.34%. Then `O=C(O)C1(Nc2ccccc2)CCN(Cc2ccccc2)CC1`, with inactive: 0.14%; and `CC(C)(C)OC(=O)N1CCC(Nc2ccccc2)CC1`, with inactive: 0.35%; and `CCN1CCC(Nc2cccc(F)c2)CC1`, with inactive: 0.37%. Regarding `CN(C)c1ccc(C(=O)NCC2(N3CCCCC3)CCCCC2)cc1`, the CPE inhibition is inactive: -0.59%. Under `COc1cc(OC)cc(C(=O)NCC2(N3CCCCC3)CCCCC2)c1` stands inactive: 0.04%; under `Fc1ccccc1NC1CCN(Cc2ccccc2)CC1`, inactive: 0.2%. In the case of `CCCN1CCC(Nc2cc(OC)cc(OC)c2)CC1`, the CPE inhibition was inactive: 0.36%.

Consider `c1ccc(CN2CCC(Nc3ccccc3)CC2)cc1`, for which the CPE inhibition is inactive: 0.43%. On to `CN(C)C1(CNC(=O)c2cccc(C#N)c2)CCCCC1`, for which the CPE inhibition is inactive: 0.07%. Then `CC(C)(C)OC(=O)N1CCC(N(C(=O)c2ccccc2)c2ccc(Cl)cc2)CC1`, with inactive: -1.65%; and `N#Cc1ccc(C(=O)NCC2(N3CCCCC3)CCCCC2)cc1`, with inactive: 1.09%. In the case of `CCOC(=O)N1CCC(Nc2ccc(C)cc2)CC1`, the CPE inhibition is inactive: -0.07%. As to `O=C(OC1CN2CCC1CC2)C1c2ccccc2C=Cc2ccccc21` (centres undefined), the CPE inhibition is inactive: 1.74%.

For the compound `COc1ccc(C(=O)NCC2(N3CCOCC3)CCCCC2)cc1OC`, the CPE inhibition is inactive: 1%.
